Record: PubChem BioAssay AID624099 (ICCB-Longwood, 2012)
The whole screen tested about 21,000 reagents; this is a random part of them. 497 of them (2.4%) were called active. 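Higher z means weaker E2 silencing; only reporter increases were scored, and knock-downs that hurt cell survival may mask genuine repressor factors.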 A number with no mark means an inactive call. The numbers tell different reagents against one gene apart.

- Aim: 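Human genes that papillomavirus E2 requires to repress the HPV18 LCR promoter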 (primary screen)
- System: human C33A cervical carcinoma cells (HPV-negative) stably expressing BPV1 E2 and an HPV18 LCR luciferase reporter
- Reagent: siRNA pool against human genes, 40 nM
- Time to read-out: 72 h
- Read-out: 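HPV18 LCR reporter light per well, converted to plate-wise z-scores that exclude control wells, and averaged over triplicate plates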
- Scale: mean z-score and z-score: higher = stronger reporter signal, weaker E2 silencing
- Call rule: 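Mean z ≥ 2 together with z ≥ 2 in two or more of the three replicates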

The opening 6 entries, ahead of the listing:
| target | reagent | mean z-score | z-score, replicate A | z-score, replicate B | z-score, replicate C |
| --- | --- | --- | --- | --- | --- |
| GRIA1 | 1 | -0.41 | -0.14 | -0.48 | -0.59 |
| HEMK1 | 1 | -0.61 | -0.45 | -0.67 | -0.71 |
| TVP23C | 1 | -0.8 | -0.89 | -0.87 | -0.63 |
| ZNF407 | 1 | 0.5 | 0.57 | 0.48 | 0.45 |
| TBC1D8B | 1 | 1.06 | 1.06 | 1.12 | 1.02 |
| USPL1 | 1 | -0.4 | 0.46 | -0.85 | -0.8 |

The list itself, from the start:
| target | reagent | mean z-score | z-score, replicate A | z-score, replicate B | z-score, replicate C |
| --- | --- | --- | --- | --- | --- |
| GRIA1 | 1 | -0.41 | -0.14 | -0.48 | -0.59 |
| HEMK1 | 1 | -0.61 | -0.45 | -0.67 | -0.71 |
| TVP23C | 1 | -0.8 | -0.89 | -0.87 | -0.63 |
| ZNF407 | 1 | 0.5 | 0.57 | 0.48 | 0.45 |
| TBC1D8B | 1 | 1.06 | 1.06 | 1.12 | 1.02 |
| USPL1 | 1 | -0.4 | 0.46 | -0.85 | -0.8 |
| ESPN | 1 | -1.14 | -1.46 | -0.92 | -1.05 |
| MPLKIP | 1 | 0.71 | 1.01 | 0.92 | 0.2 |
| LOC121792 (retired record) | 1 | -1.42 | -1.25 | -1.71 | -1.31 |
| CEP44 | 1 | -0.52 | -0.75 | -0.61 | -0.18 |
| NT5DC3 | 1 | 0.72 | 1.05 | 0.26 | 0.85 |
| GTF3C1 | 1 | 0.45 | 0.39 | 0.35 | 0.62 |
| LOC284788 | 1 | 0.3 | 0.18 | 0.38 | 0.35 |
| CECR2 | 1 | 0.93 | 1.34 | 0.8 | 0.66 |
| JRK | 1 | 0.12 | 0.33 | -0.1 | 0.12 |
| SLC44A1 | 1 | -1 | -1 | -1.33 | -0.67 |
| STK38L | 1 | 0.18 | 0.35 | 0.52 | -0.32 |
| BRD9 | 1 | -2.67 | -2.93 | -2.52 | -2.55 |
| POGLUT2 | 1 | 0.88 | 0.87 | 0.97 | 0.8 |
| ACTL9 | 1 | -0.44 | -0.59 | -0.4 | -0.34 |
| DYNC1I2 | 1 | -0.5 | -0.52 | -0.47 | -0.51 |
| MEX3C | 1 | 0.12 | 0.15 | -0.1 | 0.31 |
| LOC389189 (retired record) | 1 | -0.02 | -0.17 | -0.11 | 0.21 |
| GLT6D1 | 1 | -0.82 | -0.86 | -0.63 | -0.96 |
| PAPOLA | 1 | -0.26 | -0.37 | -0.11 | -0.29 |
| ADAMTS6 | 1 | -0.41 | -0.11 | -0.6 | -0.53 |
| ADAMTS6 | 2 | 2.31 (active) | 2.61 | 2.21 | 2.1 |
| CC2D2A | 1 | 0.76 | 0.7 | 0.75 | 0.81 |
| LOC391749 (retired record) | 1 | -0.89 | -0.71 | -1.01 | -0.96 |
| EIF1AX | 1 | -1.33 | -1.24 | -1.39 | -1.35 |
| ATG5 | 1 | 0.63 | 0.54 | 0.52 | 0.83 |
| QRICH2 | 1 | -1.75 | -1.44 | -1.98 | -1.84 |
| ABCB11 | 1 | 0.17 | 0.56 | 0.06 | -0.11 |
| TRIM26 | 1 | 1.41 | 1.38 | 1.39 | 1.45 |
| SRP19 | 1 | 0.62 | 0.74 | 0.54 | 0.57 |
| LOC388823 (retired record) | 1 | -0.72 | -0.93 | -0.91 | -0.32 |
| SPANXA1 | 1 | -1.08 | -1.17 | -1.19 | -0.88 |
| SP6 | 1 | -0.95 | -1.02 | -0.85 | -0.97 |
| F9 | 1 | -0.19 | -0.14 | -0.34 | -0.08 |
| ZNF263 | 1 | -0.13 | -0.28 | -0.11 | -0.01 |
| BEST4 | 1 | 0.57 | 0.25 | 0.53 | 0.94 |
| FANCD2 | 1 | -0.28 | -0.23 | -0.18 | -0.43 |
| ITGA10 | 1 | -0.79 | -0.98 | -0.72 | -0.68 |
| SLC6A2 | 1 | 0.92 | 0.86 | 0.77 | 1.13 |
| PRPF19 | 1 | -0.86 | -0.71 | -0.91 | -0.97 |
| CD44 | 1 | -0.2 | -0.29 | -0.18 | -0.12 |
| FAM3B | 1 | -0.12 | 0.1 | -0.08 | -0.37 |
| SUPV3L1 | 1 | 0.92 | 0.65 | 1.05 | 1.06 |
| DOK5 | 1 | -0.96 | -1.05 | -0.93 | -0.91 |
| CSF3R | 1 | 0.4 | 0.16 | 0.72 | 0.33 |
| DHCR24 | 1 | 1.05 | 0.86 | 1.15 | 1.15 |
| ZSWIM5 | 1 | -0.11 | 0.08 | 0.1 | -0.51 |
| FRMD7 | 1 | -0.56 | -0.36 | -0.47 | -0.85 |
| CYP2R1 | 1 | 0.2 | 0.5 | 0.21 | -0.11 |
| TSN | 1 | -0.81 | -0.74 | -0.79 | -0.89 |
| HSPA1B | 1 | -0.09 | 0.28 | -0.22 | -0.34 |
| LINC01235 | 1 | -0.2 | 0 | 0.03 | -0.63 |
